Screening data, single-dose tests

Mtb cholesterol medium: 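Whole-cell growth test on Mycobacterium tuberculosis, read after 4 days in a medium based on cholesterol and the lipid DPPC; the read-out is not stated. Tested at 500 µM. Direction is inferred from retests: higher values go with more growth inhibition. Size under these conditions: about 18,000 compounds, about 900 of them at 50% or above in at least one test.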
Mtb glucose medium: 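Whole-cell growth test on Mycobacterium tuberculosis, read after 3 days in glucose-containing 7H9 medium; the read-out is not stated. Compounds at 500 µM. Higher reads as more growth inhibition (inferred: compounds with an IC50 in retests scored well above the rest). Of about 18,000 compounds tested this way, about 1,400 (7.9%) reached 50% or more in at least one test.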

Each number is a percent effect as filed. The controls that fix the scale are not given in the record; negative values are as filed. The entries come from a sample that favours strong results. A dash means the value is not listed here; it may have been measured.

With O=C(c1cnsn1)N1CCN(c2ccccn2)CC1 the screen gave Mtb cholesterol medium: 59.63%; Mtb glucose medium: 70.39%. For CNC(=O)CN(C)S(=O)(=O)c1cc(C)c(OC)cc1C the result was Mtb glucose medium: -13.28%. With CCNC(=O)NCCCOCC1CCOC1 (centres unmarked) the screen gave Mtb cholesterol medium: -7.578%. CCN(C)CC1CCN(S(=O)(=O)c2cccnc2)C1 (centres unmarked) gave Mtb cholesterol medium: -6.036%. With CCOc1cc(CN(C)CCN(C)C)ccc1O the screen gave Mtb glucose medium: -4.907%. CN1CCc2ccc(NC(=O)N3CCCC3)cc2C1=O read Mtb cholesterol medium: -11.65%. Result for CS(=O)(=O)c1ccc(NC(=O)CN)cc1 was Mtb cholesterol medium: 3.819%; Mtb glucose medium: 15.33%. Result for COC[C@@H](O)CNC(=O)NC(C)Cc1cccc(Br)c1 (some centres unmarked) was Mtb cholesterol medium: 10.37%.

CC(Sc1nc[nH]n1)C(=O)NCc1ccccc1 (centres unmarked) read Mtb glucose medium: 8.28%. For Cc1ccc(S(=O)(=O)CC(=O)NCc2ccco2)cc1 the result was Mtb glucose medium: 36.25%. Result for N#CCCN(CCC#N)C(=O)COC(=O)c1ccoc1 was Mtb cholesterol medium: -10.77%. CCOCC1CCN(C(=O)c2ccc(F)c(O)c2)CC1 gave Mtb cholesterol medium: 29.42%. For CN1CCN(S(C)(=O)=O)Cc2ccccc21 the result was Mtb cholesterol medium: -13.07%; Mtb glucose medium: 11.02%. Result for CSCc1nc(CNC(=O)CCc2ccnn2C)cs1 was Mtb glucose medium: 13.43%. COc1cccc(SCC(=O)N[C@@H]2CC[C@@H](N)C2)c1 read Mtb glucose medium: 36.67%. With Cc1nnc(NC(=O)CCNC(=O)C(C)C)s1 the screen gave Mtb glucose medium: -0.1096%.

For CC(C)c1noc(CCNC(=O)C2CC2)n1 the result was Mtb glucose medium: 10.47%. O=C(Cn1cc(C(F)(F)F)ccc1=O)N1CCCC1 read Mtb glucose medium: -3.914%. CCC(CC)C(CNC(=O)c1ccc(O)nc1)N(C)C (centres unmarked) gave Mtb glucose medium: 10.56%. For O=C(NC1CC1)c1ccc2c(c1)CCO2 the result was Mtb glucose medium: 29.07%. For COCC1CCN(C(=O)CCc2cscn2)CC1 the result was Mtb cholesterol medium: 33.81%. With CCO[C@H]1CN(Cc2csc(C(C)=O)c2)C[C@@H]1O the screen gave Mtb cholesterol medium: 17.03%. With Cn1cnnc1SCCNC(=O)c1ccncc1F the screen gave Mtb glucose medium: 4.17%. CSCC1CCN(CCC(=O)Nc2cccnc2)CC1 gave Mtb cholesterol medium: 7.815%.

For CN(CCC#N)C(=O)CN1CCc2ccccc2C1 the result was Mtb glucose medium: 17.11%. For NS(=O)(=O)CC1Cc2ccccc2C1 the result was Mtb glucose medium: 23.33%. For CN(C)S(=O)(=O)c1ccc(C(=O)Nc2nncs2)o1 the result was Mtb glucose medium: 9.163%. For NC(=O)CN(C(=O)c1cccc(Cl)c1)c1ccccc1 the result was Mtb cholesterol medium: 9.806%; Mtb glucose medium: 26.18%. With Brc1ccc2c(c1)OCCNC2 the screen gave Mtb cholesterol medium: 53.73%; Mtb glucose medium: 60.91%.

The first 2 entries again:

| structure | Mtb cholesterol medium | Mtb glucose medium |
|---|---|---|
| `O=C(c1cnsn1)N1CCN(c2ccccn2)CC1` | 59.63% | 70.39% |
| `CNC(=O)CN(C)S(=O)(=O)c1cc(C)c(OC)cc1C` | - | -13.28% |

Measurements from “University of Dundee, Small-Polar-MMV Screening Library” (2021), ChEMBL document CHEMBL3988442.